Data as given in PubChem BioAssay AID624099 (ICCB-Longwood, 2012).
Screen: 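Human genes that papillomavirus E2 requires to repress the HPV18 LCR promoter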 (primary screen). Cells: human C33A cervical carcinoma cells (HPV-negative) stably expressing BPV1 E2 and an HPV18 LCR luciferase reporter. Knock-down reagent: siRNA pool against human genes, 40 nM. Duration: 72 h. Measurement: 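Per-well luciferase luminescence, z-scored on each plate against the plate mean and SD with control wells left out, then averaged across three replicate plates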. Reading the numbers: mean z-score and z-score: higher = stronger reporter signal, weaker E2 silencing. Active means: 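Hit if mean z-score reaches 2 and two or more of three replicate z-scores also reach 2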.
In all, the deposit lists about 21,000 reagents; shown is a random part of them. 497 of all reagents (2.4%) count as active. 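Higher z means weaker E2 silencing; only reporter increases were scored, and knock-downs that hurt cell survival may mask genuine repressor factors.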 Reagents against one gene are numbered here.

gene	pool no.	mean z-score	z-score, replicate A	z-score, replicate B	z-score, replicate C	call
IER3	1	0.94	0.59	1.11	1.12	inactive
TMEM97	1	0.81	0.82	0.88	0.72	inactive
SYPL2	1	1.89	1.71	1.59	2.37	inactive
THUMPD3	1	-0.26	-0.59	-0.12	-0.07	inactive
TIGD4	1	0.56	0.19	0.84	0.64	inactive
PJA2	1	1.21	1.23	1.07	1.33	inactive
PRTG	1	-0.76	-0.43	-1.08	-0.77	inactive
KRTAP2-4	1	-0.39	-0.44	-0.52	-0.22	inactive
C3orf85	1	0.02	0.21	-0.39	0.23	inactive
POLR2D	1	-1.5	-1.26	-1.26	-1.98	inactive
LOC389390 (retired record)	1	0.11	-0.02	0.18	0.16	inactive
GFPT1	1	-0.28	-0.27	-0.27	-0.31	inactive
PRDX5	1	0.18	0.28	0.03	0.23	inactive
SLC25A52	1	-0.83	-0.95	-1.04	-0.5	inactive
NET1	1	0.4	0.62	0.35	0.23	inactive
LOC93429	1	0.57	0.42	0.71	0.59	inactive
COL28A1	1	0.28	0.37	0.1	0.38	inactive
COL28A1	2	-0.23	-0.35	0.04	-0.4	inactive
COL28A1	3	0.6	0.43	0.65	0.71	inactive
MOV10L1	1	0.21	0.19	0.4	0.04	inactive
TEX264	1	1.89	2.47	1.47	1.73	inactive
CST5	1	-0.28	0	-0.39	-0.46	inactive
RBM34	1	-0.59	-0.49	-0.68	-0.59	inactive
LOC400584 (retired record)	1	-0.7	-0.68	-0.53	-0.89	inactive
TTC39C	1	-0.02	0.11	-0.25	0.09	inactive
LINC00305	1	-0.98	-1.23	-0.91	-0.81	inactive
LOC390009 (retired record)	1	-1.61	-1.79	-1.75	-1.3	inactive
DBX1	1	1.28	1.05	1.71	1.09	inactive
REST	1	0.62	0.55	0.59	0.73	inactive
ME2	1	0.51	0.54	0.64	0.36	inactive
EDNRA	1	0.31	0.24	0.5	0.21	inactive
VTCN1	1	-0.48	-0.62	-0.52	-0.29	inactive
ZNF10	1	-0.88	-0.57	-0.84	-1.24	inactive
TAX1BP3	1	0.75	0.73	0.67	0.85	inactive
CHFR	1	-0.1	-0.02	-0.3	0.01	inactive
LOC388731 (retired record)	1	-0.24	-0.14	-0.21	-0.37	inactive
NR1H2	1	-1.38	-1.44	-1.27	-1.41	inactive
IGF1	1	-0.08	-0.07	-0.12	-0.05	inactive
MAGEA12	1	-0.44	-0.47	-0.68	-0.18	inactive

Single entries from above:
Value for COL28A1 #1 in “call”: inactive
LINC00305, z-score, replicate B: -0.91
Result of RBM34 in “z-score, replicate A”: -0.49
